Compound potency records, mixed from different reports. Data source: NIAID ChemDB in PubChem.

Common to all: tests in culture; organism: Human cytomegalovirus; read-out: EC50

a–b is a range or a potency band.

structure,strain,method,result
Nc1ncnc2c1ncn2C[C@@H](CO)OCP(=O)(O)O,-,-,1.4 µM
O=C(NCc1ccc(Cl)cc1)c1cn2c(CO)cc3cc(CN4CCOCC4)cc(c1=O)c32,-,-,0.21 µM
Nc1ncc2c(ncn2COC(CO)CO)n1,-,-,0.12 µM
CC(C)Oc1ccccc1CNC(=O)c1nc2ccncc2s1,-,-,0.1–10 µg/mL
Cn1ccnc1SCC1Cn2cc(C(=O)NCc3ccc(Cl)cc3)c(=O)c3cc(CN4CCOCC4)cc(c32)O1,-,-,0.27 µM
CC1(Cn2cnc3c(N)nc(Cl)nc32)CC1CO,-,-,>100 µg/mL
COc1cc2cc3c(c(-c4ccc5c(c4)OCO5)c2c(OC)c1OC)C(=O)OC3,-,plaque count,1.4 µM
Cc1nc2[nH]cc(C(=O)NCc3ccc(Cl)cc3)c(=O)c2cc1C#CCO,-,-,2.1 µM
Cc1ccccc1Cn1c(=O)ccn(CC#N)c1=O,AD169,-,78 µM
COc1ccc(-c2c3c(cc4cc5c(cc24)OCO5)C(=O)OC3)cc1OC,-,plaque count,7.2 µM
Cc1cc(C)nc(Cn2c(=O)ccn(Cc3ccccc3)c2=O)c1,AD169,-,20 µM
O=CNc1cn(-c2ccc(F)cc2)c2cc(-c3ccncc3)ccc2c1=O,-,plaque count,0.048 µg/mL
C[C@@]1(CO)[C@H](O)CC[C@@]2(C)[C@H]1CC[C@H]1C[C@@H]3CC12CC=C3CO,-,plaque count,3.4 µM
O=c1[nH]c(=O)n([C@H]2C[C@H](O)[C@@H](CO)O2)cc1/C=C/Br,-,-,>100 µM
C[C@H]1O[C@@H](n2c(Cl)nc3cc(Cl)c(Cl)cc32)[C@H](O)C1O,-,-,0.35 µM
O=C1Cn2cc(C(=O)NCc3ccc(Cl)cc3)c(=O)c3cc(CN4CCOCC4)cc(c32)N1,-,-,0.14 µM
Cc1cc(C)cc(Cn2c(=O)c(I)cn(Cc3ccccc3)c2=O)c1,AD169,-,>4.7 µM
CC1(Cn2cnc3c(N)ncnc32)CC1CO,-,-,72.06 µg/mL
Nc1nc(N)c2ncn(C[C@@H](CO)OCP(=O)(O)O)c2n1,-,-,7.8 µM
CO[C@@H]1[C@H](OP(O)(=S)OC[C@H]2O[C@@H](n3cnc4c(N)ncnc43)C[C@@H]2O)[C@@H](CO)O[C@H]1n1ccc(=O)[nH]c1=O,AD169,-,>20 µM
Nc1ccn(C[C@@H](CO)OCP(=O)(O)O)c(=O)n1,-,-,0.03 µM
O=C(NCc1ccc(Cl)cc1)c1ccc2ccc(/C=C/c3ccccc3)nc2c1O,-,-,170 µM
C[C@@]1(CO)[C@H](O)CC[C@@]2(C)[C@H]1CC[C@H]1C[C@@H]3C[C@@]12CC[C@]31CO1,-,plaque count,0.9 µM
Cc1ccc(S(=O)(=O)NC(N)=NCCC[C@H](NC(=O)OCc2cc(C)ccc2C)C(=O)N[C@H](C(=O)NC(Cc2ccccc2)C2NC(C(=O)O)CCS2)C(C)C)cc1,-,-,0.012 µM
Nc1nc2c(ncn2COC(CO)CO)c(=O)[nH]1,-,-,8 µM
Nc1nc(N)c2ncn(CCOCP(=O)(O)O)c2n1,-,-,55 µM
Nc1ncc2ncn(CO[C@@H]3CCP(=O)(O)OC3)c2n1,AD169,-,6.7 µg/mL
Cc1ccc(S(=O)(=O)OC[C@@]2(O)CCC34C[C@H]2C[C@@H]3CC[C@H]2[C@](C)(CO)[C@H](O)CC[C@@]24C)cc1,-,plaque count,1.1 µM
CCOC(=O)C1=Cc2cc3c(cc2[C@@H](c2ccc4c(c2)OCO4)[C@@H]1C(=O)OCC)OCO3,-,plaque count,25 µM
CC(C)Oc1ccccc1CNC(=O)Nc1ccc2cnccc2n1,-,-,0.01–0.1 µg/mL

For reference, 3 entries again:

structure	strain	method	result
Cc1cc(C)cc(Cn2c(=O)c(I)cn(Cc3ccccc3)c2=O)c1	AD169	-	>4.7 µM
Cc1nc2[nH]cc(C(=O)NCc3ccc(Cl)cc3)c(=O)c2cc1C#CCO	-	-	2.1 µM
O=c1[nH]c(=O)n([C@H]2C[C@H](O)[C@@H](CO)O2)cc1/C=C/Br	-	-	>100 µM

ECn is the concentration giving n% inhibition of infection, replication or growth. Neighbouring rows are from separate reports. Blank or dashed fields: not listed here.